Where a chain is given by its changes, count along the chain named.

Here are results for five molecules from patent publication US20240109955A1 (published 2024).

Assay in all cases: cell-based or functional assay
For test [1], the target named is SARS-CoV-2 spike (S) protein of Omicron sublineage BJ.1 (R346T, V445P, G446S) (SARS-CoV-2, UniProt P0DTC2 14-1273).
The target of test [2] is SARS-CoV-2 spike (S) protein of Omicron sublineage BQ.1.1 (R346T, K444T, F486V) (SARS-CoV-2, UniProt P0DTC2 14-1273).
The target of test [3] is SARS-CoV-2 spike (S) protein of Omicron sublineage BA.2.75 (G446S) (SARS-CoV-2, UniProt P0DTC2 14-1273).
Test [4] deals with SARS-CoV-2 spike (S) protein, Omicron sublineage BA.1.1 (R346K) (SARS-CoV-2, UniProt P0DTC2 14-1273).
The target of test [5] is SARS-CoV-2 spike (S) protein, Omicron sublineage BA.4.7 (R346S, F486V) (SARS-CoV-2, UniProt P0DTC2 14-1273).
Test [6] addresses SARS-CoV-2 spike (S) protein, Omicron sublineage BA.4.6 (R346T, F486V) (SARS-CoV-2, UniProt P0DTC2 14-1273).
In test [7] the target is SARS-CoV-2 spike (S) protein, Omicron sublineage BF.7 (R346T, F486V) (SARS-CoV-2, UniProt P0DTC2 14-1273).
The target of test [8] is SARS-CoV-2 spike (S) protein, Omicron sublineage BQ 1.1 (R346T, K444T, F486V) (SARS-CoV-2, UniProt P0DTC2 14-1273).
For test [9], the target named is SARS-CoV-2 spike protein, Omicron variant B.1.1.529 (SARS-CoV-2).
Test [10] concerns the target SARS-CoV-2 spike protein, Delta variant (SARS-CoV-2).

B1: A23-58.1HC/58.1LC_93VGLTG (antibody, V domains shown)
VH: QMQLVQSGPEVKKPGTSVKVSCKASGFTFTSSAVQWVRQRQRLEWIGWIVVGSGNTNYAQKFQERVTITRDMSTSTAYMELSSLRSEDTAVYYCAAPNCSNVVCYDGFDIWGQGTMVTVSS
VL: EIVLTQSPGTLSLSPGERATLSCRASQSVSSSYLAWYQQKPGQAPRLLIYSASSRATGIPDRFSGSGSGTDFTLTISRLEPEDFAVYFCQQYVGLTGWTFGQGTKVEIK
For B1, the entries for the “IC80, pseudovirus neutralization” value in test [1], in test [2] and in test [3] were 2 nM, 28 nM and 1 nM, respectively. The “IC50, pseudovirus neutralization” value in [2] came out at 7 nM.

B2: combination of MX830 and MX831 (other)
chain 1: QTVVTQEPSFSVSPGGTVTLTCGLSSGSVSTAYFPSWYQQTPGQAPRTLIYGTNTRSSGVPDRFSGSILGNKAALTITGAQADDESDYYCVLYMGRGIVVFGGGTKLTVLGGSSGEIVLTQSPGTLSLSPGERATLSCRASQSVSSSYLAWYQQKPGQAPRLLIYSASSRATGIPDRFSGSGSGTDFTLTISRLEPEDFAVYFCQQYGGLTGWTFGQGTKVEIKGGGGSGGSGSGGGGSASGSGQMQLVQSGPEVKKPGTSVKVSCKASGFTFTSSAVQWVRQRQRLEWIGWIVVGSGNTNYAQKFQERVTITRDMSTSTAYMELSSLRSEDTAVYYCAAPNCSNVVCYDGFDIWGQGTMVTVSSGGSSGQVQLVESGGGVVQPGRSLRLSCAASGFTLSSYGMHWVRQAPGKGLEWVAVISYDGSNKYYVDSVKGRFTISRDNSKNTLYLQMNSLRAEDTAVYYCRWAYWELLPDYYYGMDVWGQGTTVTVSSASGGSGDKTHTCPPCPAPELLGGPSVFLFPPKPKDTLMISRTPEVTCVVVDVSHEDPEVKFNWYVDGVEVHNAKTKPREEQYNSYVVSVLTVLHQDWLNGKEYKCKVSNKALPAPIEKTISKAKGQPREPQVYTLPPSRDELTKNQVSLTCLVKGFYPSDIAVEWESNGQPENNYKTTPPVLDSDGSFFKKLTVDKSRWQQGNVFSCSVLHEALHSHYTQKSLSLSPG
chain 2: DIQMTQSPSSVSASVGDRVIITCRASQGISSWLAWYQQKPGKAPKVLIYDASSLQSGVPSRFSGSGYGTDFTLTISSLQPEDSATYYCQQAKSFPITFGQGTRLEIKGGSSGEIVLTQSPGTLSLSPGERATLSCRASQSVSSSYLAWYQQKPGQAPRLLIYSASSRATGIPDRFSGSGSGTDFTLTISRLEPEDFAVYFCQQYGGLTGWTFGQGTKVEIKGGGGSGGSGSGGGGSASGSGQMQLVQSGPEVKKPGTSVKVSCKASGFTFTSSAVQWVRQRQRLEWIGWIVVGSGNTNYAQKFQERVTITRDMSTSTAYMELSSLRSEDTAVYYCAAPNCSNVVCYDGFDIWGQGTMVTVSSGGSSGQVQLVESGGGVVQPGRSLRLSCAASGFTFSSYAFHWVRQAPGKGLEWVAVISYDGSNQYYADSVKGRFTISRDNSKNTLYLQMNSLRADDTAVYYCARDLAIAVAGTWHYYNGMDVWGQGTTVTVSSASGGSGDKTHTCPPCPAPELLGGPSVFLFPPKPKDTLMISRTPEVTCVVVDVSHEDPEVKFNWYVDGVEVHNAKTKPREEQYNSYVVSVLTVLHQDWLNGKEYKCKVSNKALPAPIEKTISKAKGQPREPQVYTLPPSRDELTKNQVSLTCLVKGFYPSDIAVEWESNGQPENNYKTTPPVLDSDGSFFKKLTVDKSRWQQGNVFSCSVLHEALHSHYTQKSLSLSPG
For B2, the figures for the “IC50, pseudovirus neutralization” value in test [1], in test [2] and in test [3] were 6 nM, 261 nM and 1 nM, respectively. In addition, the “IC80, pseudovirus neutralization” value in test [1] was 29 nM; in [2], 878 nM; in test [3], 2 nM.

B3: MX835 tetravalent, trispecific antibody (A23-58H/A23-58L94GLTG, A19-46, A23-58H/A23-58L94GLTG, A19-61) (trispecific antibody)
chain 1: B2 chain 1 with S632C, T644W
chain 2: EIVLTQSPGTLSLSPGERATLSCRASQSVSSSYLAWYQQKPGQAPRLLIYSASSRATGIPDRFSGSGSGTDFTLTISRLEPEDFAVYFCQQYGGLTGWTFGQGTKVEIKGGSSGDIQMTQSPSSVSASVGDRVIITCRASQGISSWLAWYQQKPGKAPKVLIYDASSLQSGVPSRFSGSGYGTDFTLTISSLQPEDSATYYCQQAKSFPITFGQGTRLEIKGGGGSGGSGSGGGGSASGSGQVQLVESGGGVVQPGRSLRLSCAASGFTFSSYAFHWVRQAPGKGLEWVAVISYDGSNQYYADSVKGRFTISRDNSKNTLYLQMNSLRADDTAVYYCARDLAIAVAGTWHYYNGMDVWGQGTTVTVSSGGSSGQMQLVQSGPEVKKPGTSVKVSCKASGFTFTSSAVQWVRQRQRLEWIGWIVVGSGNTNYAQKFQERVTITRDMSTSTAYMELSSLRSEDTAVYYCAAPNCSNVVCYDGFDIWGQGTMVTVSSASGGSGDKTHTCPPCPAPELLGGPSVFLFPPKPKDTLMISRTPEVTCVVVDVSHEDPEVKFNWYVDGVEVHNAKTKPREEQYNSYVVSVLTVLHQDWLNGKEYKCKVSNKALPAPIEKTISKAKGQPREPQVCTLPPSRDELTKNQVSLSCAVKGFYPSDIAVEWESNGQPENNYKTTPPVLDSDGSFFLVSKLTVDKSRWQQGNVFSCSVLHEALHSHYTQKSLSLSPG
Turning to B3, the “IC50, pseudovirus neutralization” value in test [1] came to 2 nM; in test [2] it was 369 nM; in test [3] it was 1 nM. Besides, the “IC80, pseudovirus neutralization” value in test [1] worked out at 23 nM; in [2], 1620 nM; in [3], 2 nM.

B4: MX831 (bispecific antibody)
chain: B2 chain 2
Turning to B4, the “IC50, pseudovirus neutralization” value was found to be 17.2 nM in [4]; 3.08 nM in test [5]; 27.9 nM in [6]; 3.73 nM in test [7]; 4210 nM in [8]. In addition, the “IC80, pseudovirus neutralization” value is 50 nM in [4]; 19.1 nM in [5]; 58.5 nM in test [6]; 21.7 nM in test [7]; over 10000 nM in [8].

B5: MX1086 (antibody)
chain 1: EIVMTQSPAILSVSPGERATLSCRASQSVAINLAWYQQKPGQAPRLLIYAASSRATGIPGRFSGSGSETNFTLTISSLQSGDFAVYYCQQYITWPPSYTFGQGTKLEIKGGSSGDTVMTQSPLSLPVTPGEPASISCRSSQSLLNSNGYNYLDWYVQKPGQSPQLLIYLGSNRASGVPDRFSGSGSGTDFTLKISRVEAEDVGVYYCMQPLQTPLFTFGPGTKVEIKGGGGSGGSGSGGGGSASGSGQVTLRESGPALVKPTQTLTLTCTFSGFSLSTRGVCVSWIRQPPGKALEWLAFIDWDDDKYYNTSLKTRLTISKDTSKNQVVLTMTNVHPVDTATYYCARISSHHGSSWCTTFDYWGQGALVTVSAGGSSGEVQLVESGGALIQPGGSLRLSCAASGIIVSANYMSWVRQAPGKGLEWVSVIYSGGSTFYADSVKGRFTISRDNSKNTLYLEMNSLRAEDTAVYYCARDAPILGVSDWGQGTLVTVSSASGGSGDKTHTCPPCPAPELLGGPSVFLFPPKPKDTLMISRTPEVTCVVVDVSHEDPEVKFNWYVDGVEVHNAKTKPREEQYNSYVVSVLTVLHQDWLNGKEYKCKVSNKALPAPIEKTISKAKGQPREPQVCTLPPSRDELTKNQVSLSCAVKGFYPSDIAVEWESNGQPENNYKTTPPVLDSDGSFFLVSKLTVDKSRWQQGNVFSCSVLHEALHSHYTQKSLSLSPG
chain 2: QTVVTQEPSFSVSPGGTVTLTCGLSSGSVSTAYFPSWYQQTPGQAPRTLIYGTNTRSSGVPDRFSGSILGNKAALTITGAQADDESDYYCVLYMGRGIVVFGGGTKLTVLGGSSGEIVLTQSPGTLSLSPGETATLSCRASQSFSSDLAWYQQKPGQAPRLLIYGASSRATGIPDRFSGSGSGTDFTLTISRLEPADFAVYYCQQYGSSPPVTFGGGTKVEIKGGGGSGGSGSGGGGSASGSGEVQLVESGGGLIQPGGSLRLSCAASGVIVSYNYMNWVRQAPGKGLEWVSVIYSGGSTFYADSVRGRFTISRDNSKNTLYLQMNSLRAEDTAVYYCARDLGPAGAFDIWGLGTMVTVSSGGSSGQVQLVESGGGVVQPGRSLRLSCAASGFTLSSYGMHWVRQAPGKGLEWVAVISYDGSNKYYVDSVKGRFTISRDNSKNTLYLQMNSLRAEDTAVYYCRWAYWELLPDYYYGMDVWGQGTTVTVSSASGGSGDKTHTCPPCPAPELLGGPSVFLFPPKPKDTLMISRTPEVTCVVVDVSHEDPEVKFNWYVDGVEVHNAKTKPREEQYNSYVVSVLTVLHQDWLNGKEYKCKVSNKALPAPIEKTISKAKGQPREPQVYTLPPCRDELTKNQVSLWCLVKGFYPSDIAVEWESNGQPENNYKTTPPVLDSDGSFFKKLTVDKSRWQQGNVFSCSVLHEALHSHYTQKSLSLSPG
As to B5, the “IC50, pseudovirus neutralization” value in test [9] came out at 0.00291 µg/mL; in test [10], 0.0398 µg/mL. Also, the “IC80, pseudovirus neutralization” value in test [9] is 0.00773 µg/mL; in test [10], 0.0465 µg/mL.
